Legend:
C. elegans [1] = assay: Acute paralysis assays; format: in vivo, Caenorhabditis elegans; settings: for Hill-slope acute paralysis curve: 10 min, Fig 4B
Experimental: Acute paralysis assays were carried out in microtiter plates containing the drug dissolved in M9 buffer. […] Each drug concentration was tested in two wells (containing 30 animals each) within a single experiment. […] The experiment was independently repeated at least three times.

C. elegans [2] = assay: Lethality assays, dose-dependent, wild-type L4; format: in vivo, Caenorhabditis elegans; settings: lethal dose curve
Experimental: Dose-dependent lethality was quantified by exposing 40 L4s to DII (0–1000 μM) dissolved in solid medium for 8 and 24 h at 20°C. For survival to 96 h of DII exposure the temperature used was 13°C to avoid food depletion.

| SMILES | Hill-slope acute paralysis curve (C. elegans [1]) | Hill-slope levamisole paralysis curve (C. elegans [1]; Fig 4E black circle) | Hill-slope levamisole paralysis curve (C. elegans [1]; Fig 4E dark pink triangle up) | Hill-slope levamisole paralysis curve (C. elegans [1]; Fig 4E light pink triangle down) | Hill slope levamisole paralysis curve (C. elegans [1]; S5D Fig black circle) | Hill slope levamisole paralysis curve (C. elegans [1]; S5D Fig pink triangle) | Hill-slope (C. elegans [2]; 8 h of exposure) | Hill-slope (C. elegans [2]; 24 h of exposure) | Hill slope (C. elegans [2]; 96 h of exposure) |
| --- | --- | --- | --- | --- | --- | --- | --- | --- | --- |
| c1ccc([C@H]2CN3CCSC3=N2)cc1 [levamisole] | 2.39 ± 1.37 | 1.78 ± 0.36 | 2.65 ± 0.81 | 2.36 ± 0.61 | 1.23 ± 0.26 | 1.38 ± 0.54 | – | – | – |
| CC(C)c1cccc(C(C)C)c1-n1ccnc1 [Compound 11] | 1.96 ± 2.31 | – | – | – | – | – | 4.4 ± 0.9 | 6.7 ± 1.3 | 2.15 ± 0.25 |

Reference: publication PMC6312359, “Diisopropylphenyl-imidazole (DII): A new compound that exerts anthelmintic activity through novel molecular mechanisms” (PLoS Neglected Tropical Diseases, 2018)
